A mixed list of measured activities; the numbers were collected in NIAID ChemDB.

Shared fields: growth or infection tests; species: Hepatitis C virus

a–b is a range or a potency band.

O=C(O)/C=C/c1ccc(NC(=O)C2(NC(=O)c3ccc4cc5n(c4c3)CC(=O)Nc3cccnc3-5)CCCC2)cc1 ; read-out: EC50 ; method: replicon ; cell line: Huh7 ; value: 0.01–1 µM
CC(=O)Nc1ccc(Nc2ncnc3c2cnn3-c2ccc(C)cc2C)cc1 ; read-out: EC50 ; method: replicon ; cell line: HUH 9B ; value: 1–10 µM
CC1CCCC1OC(=O)[C@@H](NC(=O)N[C@H](C(=O)N1C[C@H]2C([C@H]1C(=O)NC(CC1CC1)C(=O)C(N)=O)C2(C)C)C(C)(C)C)C(C)(C)C ; read-out: EC90 ; method: replicon ; value: 1.3 µM
CC1CCC(C(=O)N(c2cc(-c3ccc(-c4cc5ncccn5n4)cc3)sc2C(=O)O)C2CCOCC2)CC1 ; read-out: EC50 ; strain: 1b ; method: replicon / ELISA ; value: 0.001–0.0049 µM
Cc1ccccc1-n1ncc2c(NCCc3c[nH]c4ccccc34)ncnc21 ; read-out: EC50 ; method: replicon ; cell line: HUH 9B ; value: 1–10 µM
NC(=O)c1cnc(F)c(Cn2c(C(=O)NS(=O)(=O)C3CC3)c(-c3ccc[nH]c3=O)c3c4c(c(F)cc32)CCO4)c1 ; read-out: EC50 ; method: replicon ; value: <0.5 µM
Cc1ccc(-n2ncc3c(NCCc4ccc(S(N)(=O)=O)cc4)ncnc32)c(C)c1 ; read-out: EC50 ; method: replicon ; cell line: HUH 9B ; value: 1–10 µM
Nc1cc(Cn2c(C(=O)O)c(-c3ccc[nH]c3=O)c3c4ncsc4ccc32)ccn1 ; read-out: EC50 ; method: replicon ; value: 0.5–1.5 µM
CCC(C)C(NC(=O)NC(C(=O)N1C[C@H]2C([C@H]1C(=O)NC(CC1CC1)C(=O)C(=O)NCC(=O)N[C@H](C(=O)N(C)C)c1ccccc1)C2(C)C)C(C)(C)C)C(=O)O ; read-out: EC90 ; method: replicon ; value: 10 µM
Cc1ccc(-n2ncc3c(NC(=O)Nc4ccc(Cl)cc4)ncnc32)c(C)c1 ; read-out: EC50 ; method: replicon ; cell line: HUH 9B ; value: <1 µM
O=C(O)C1=Cc2ccccc2-c2c(C3CCCCC3)c3ccc(C(=O)O)cc3n2C1 ; read-out: EC50 ; method: replicon ; cell line: Huh7 ; value: >10 µM
CS(=O)(=O)NC(=O)c1c(-c2ccc[nH]c2=O)c2c3occc3c(F)cc2n1Cc1ccccc1F ; read-out: EC50 ; method: replicon ; value: <0.5 µM
CC1CCC(C(=O)N(CC2CCOCC2)c2cc(-c3ccc(-c4nc5ncccc5o4)cc3)sc2C(=O)O)CC1 ; read-out: EC50 ; strain: 1b ; method: replicon / ELISA ; value: 0.01–0.049 µM
O=C(O)c1ccc2c(C3CCCCC3)c3n(c2c1)CC(C(=O)NCCO)Cc1ccccc1-3 ; read-out: EC50 ; method: replicon ; cell line: Huh7 ; value: 0.01–1 µM
COc1nc(N)nc2c1ncn2[C@@H]1O[C@H](COP(=O)(N[C@@H](C)C(=O)OC(C)C)Oc2ccccc2)[C@@H](O)[C@@]1(C)F ; read-out: EC50 ; strain: 2a ; method: replicon ; conditions: 20 d ; value: 0.032 µM
CC(C)(C)C(NC(=O)N[C@H](C(=O)N1C[C@H]2C([C@H]1C(=O)NC(CC1CC1)C(=O)C(N)=O)C2(C)C)C(C)(C)C)C(=O)OCc1ccc(F)cc1 ; read-out: EC90 ; method: replicon ; value: 0.1 µM
Nc1ccnc2cc(-c3ccc(-c4cc(N(C(=O)C5CCC(C(F)(F)F)CC5)C5CCOCC5)c(C(=O)O)s4)cc3)nn12 ; read-out: EC50 ; strain: 1a ; method: replicon / ELISA ; value: 0.005–0.0099 µM
O=C(O)c1c(-c2ccc[nH]c2=O)c2c3c(ccc2n1Cc1cc(F)ccc1F)CCCO3 ; read-out: EC50 ; method: replicon ; value: <1 µM
COCCN(C(=O)C1CCC(C)CC1)c1cc(-c2ccc(-c3cc4ccccc4o3)cc2)sc1C(=O)O ; read-out: EC50 ; strain: 1a ; method: replicon / ELISA ; value: 0.001–0.0049 µM
C=CCNC(=O)C(=O)C(CCCC)NC(=O)[C@@H]1C2[C@H](CN1C(=O)[C@@H](NC(=O)NC(C(=O)OC(C)c1ccccc1)C(C)(C)C)C(C)(C)C)C2(C)C ; read-out: EC90 ; method: replicon ; value: 4.7 µM
CCOc1ccc(Nc2ncnc3c2cnn3-c2ccc(Cl)cc2Cl)cc1 ; read-out: EC50 ; method: replicon ; cell line: HUH 9B ; value: 1–10 µM
CCOC(=O)/C=C/c1ccc(NC(=O)C2(NC(=O)c3ccc4c(C5CCCCC5)c5n(c4c3)C(OC)c3ccccc3-5)CCCC2)cc1 ; read-out: EC50 ; method: replicon ; cell line: Huh7 ; value: 1–10 µM
Cc1ccc(Cn2c(C(=O)NS(=O)(=O)C3CC3)c(-c3ccc[nH]c3=O)c3c4occc4ccc32)c(C)c1 ; read-out: EC50 ; method: replicon ; value: <0.5 µM
CC(C)CC(NC(=O)N[C@H](C(=O)N1C[C@H]2C([C@H]1C(=O)NC(CC1CC1)C(=O)C(N)=O)C2(C)C)C(C)(C)C)C(=O)OCc1ccccc1 ; read-out: EC90 ; method: replicon ; value: 0.5 µM
O=C(O)c1ccc2c(C3CCCCC3)c3n(c2c1)CCN(C(=O)N1CCOCC1)c1ccccc1-3 ; read-out: EC50 ; method: replicon ; cell line: Huh7 ; value: 1–10 µM
O=C(NS(=O)(=O)C1CC1)c1c(-c2ccc[nH]c2=O)c2c3occc3c(F)cc2n1Cc1ccc2nc(C(F)(F)F)[nH]c2c1 ; read-out: EC50 ; method: replicon ; value: <0.5 µM
CCCCc1ccc(Nc2ncnc3c2cnn3-c2ccccc2C)cc1 ; read-out: EC50 ; method: replicon ; cell line: HUH 9B ; value: 1–10 µM
COCCN(C(=O)C1CCC(C)CC1)c1cc(-c2ccc(-c3cc4nccc(N)n4n3)cc2)sc1C(=O)O ; read-out: EC50 ; strain: 1b ; method: replicon / ELISA ; value: 0.001–0.0049 µM
O=C(O)c1ccc2c(C3CCCCC3)c3n(c2c1)CC(O)CNc1ccccc1-3 ; read-out: EC50 ; method: replicon ; cell line: Huh7 ; value: 1–10 µM
COCCN(C(=O)C1CCC(C)CC1)c1cc(-c2ccc(-c3cn4ccccc4n3)cc2)sc1C(=O)O ; read-out: EC50 ; strain: 1a ; method: replicon / ELISA ; value: 0.01–0.049 µM
C[C@@H](NC(=O)C(=O)C(CC1CC1)NC(=O)[C@@H]1C2[C@H](CN1C(=O)[C@@H](NC(=O)NC(C(=O)O)C(C)(C)C)C(C)(C)C)C2(C)C)c1ccccc1 ; read-out: EC90 ; method: replicon ; value: 3.5 µM
O=C(O)c1ccc2c(C3CCCCC3)c3n(c2c1)C=C(C(=O)N1CCOCC1)Cc1ccncc1-3 ; read-out: EC50 ; method: replicon ; cell line: Huh7 ; value: >10 µM
COCC(C)N(C(=O)C1CCC(C)CC1)c1cc(-c2ccc(-c3cc4ncccn4n3)cc2)sc1C(=O)O ; read-out: EC50 ; strain: 1b ; method: replicon / ELISA ; value: 0.005–0.0099 µM
O=C(O)/C=C/c1ccc(NC(=O)C2(NC(=O)c3ccc4c(C5CCCCC5)c5n(c4c3)CCOc3cccnc3-5)CCCC2)cc1 ; read-out: EC50 ; method: replicon ; cell line: Huh7 ; value: 0.01–1 µM
CNC(=O)c1c(-c2ccc(F)cc2)oc2cc(N(CCO)S(C)(=O)=O)c(C3CC3)cc12 ; read-out: EC50 ; strain: H77 genotype 1a ; method: luciferase ; cell line: Huh7.5 ; value: 0.0261 µM
NC(=O)c1cnc(F)c(Cn2c(C(=O)NS(=O)(=O)C3CC3)c(-c3ccc[nH]c3=O)c3c4occc4c(F)cc32)c1 ; read-out: EC50 ; method: replicon ; value: <0.5 µM
CC(C)(C)[C@H](NC(=O)N[C@H](C(=O)N1C[C@H]2C([C@H]1C(=O)NC(CC1CC1)C(=O)C(N)=O)C2(C)C)C(C)(C)C)C(=O)OC1CCCCC1 ; read-out: EC90 ; method: replicon ; value: 2.7 µM
Cc1ccc(-n2ncc3c(NC(=O)Nc4ccc(OCc5ccccn5)cc4)ncnc32)c(C)c1 ; read-out: EC50 ; method: replicon ; cell line: HUH 9B ; value: <1 µM
O=C(O)c1sc(-c2ccc(-c3cc4ncccc4o3)cc2)cc1N(C(=O)C1CCC(C(F)(F)F)CC1)C1CCOCC1 ; read-out: EC50 ; strain: 1a ; method: replicon / ELISA ; value: 0.01–0.049 µM

For reference, 2 entries again:

| smiles | read-out | strain | method | conditions | cell line | value |
|---|---|---|---|---|---|---|
| CNC(=O)c1c(-c2ccc(F)cc2)oc2cc(N(CCO)S(C)(=O)=O)c(C3CC3)cc12 | EC50 | H77 genotype 1a | luciferase |  | Huh7.5 | 0.0261 µM |
| Nc1ccnc2cc(-c3ccc(-c4cc(N(C(=O)C5CCC(C(F)(F)F)CC5)C5CCOCC5)c(C(=O)O)s4)cc3)nn12 | EC50 | 1a | replicon / ELISA |  |  | 0.005–0.0099 µM |

Blank or dashed fields: not listed here. Rows are shuffled and stem from different studies. ECn is the concentration giving n% inhibition of infection, replication or growth.